# Reference: US7829578B1, “Aromatic ketones and uses thereof” (Oregon Health & Science University, priority 2005, dated 2010)
# System: Murine splenic lymphocytes
# Assay: MSLCs-concanavalin A induced proliferation (blastogenesis) cytotoxicity assay, Alamar Blue fluorescence
# Assay type: cell-based
# Settings: in vitro therapeutic index = ratio of MSLCs IC50 to D6 IC50
# Experimental: *Data are the average of at least 3 independent experiments, each performed in triplicate with the aid of a Precision 2000 robotic pipeting station. IC50 values were determined by the MSF assay. […] MSLCs=Murine splenic lymphocytes. Cytotoxicity was determined using a 24-hr MSLCs-concanavalin A induced proliferation assay using the Alamar Blue fluorescence method. IVTI=in vitro therapeutic index calculated from the ratio of IC50 values based on the cytotoxicity observed in the blastogenesis assay and the antimalarial potency against the D6 strain of P. falciparum. NT=not tested.
# *Data are the average of at least 3 independent experiments, each performed in triplicate with the aid of a Precision 2000 robotic pipeting station. IC50 values were determined by the MSF assay (Smilkstein et al., AAC, 2004). MSLCs=Murine splenic lymphocytes. Cytotoxicity was determined using a 48-hr MSLCs-concanavalin A induced proliferation assay using the Alamar Blue fluorescence method. IVTI=in vitro therapeutic index calculated from the ratio of IC50 values of the cytotoxicity observed in the blastogenesis assay and antimalarial potency against the D6 strain of P. falciparum. NA=not applicable; ND=not determined.
Structure (SMILES),IVTI (Table 2),IVTI (Table 3)
CCN(CC)CCCC(C)Nc1ccnc2cc(Cl)ccc12 (racemic) [compound 36],500,
OC(c1cc(C(F)(F)F)nc2c(C(F)(F)F)cccc12)C1CCCCN1 (racemic) [compound 38],813,
O=c1c2ccccc2[nH]c2ccc(O)cc12 [compound 5],>2.8,
O=c1c2ccccc2[nH]c2cc(O)ccc12 [compound 6],>12.5,
COc1ccc2[nH]c3cc(Cl)ccc3c(=O)c2c1 [compound 7],>556,
O=c1c2ccc(Cl)cc2[nH]c2ccc(O)cc12 [compound 8],126,
COc1ccc2nc3cc(Cl)ccc3c(N)c2c1 [compound 9],25,
O=c1c2ccc(Cl)cc2[nH]c2ccc(OCCCCCBr)cc12 [compound 10],171,
O=c1c2ccc(O)cc2oc2cc(OCCCCCC(F)(F)F)ccc12 [compound 11],>543,
O=C1C=C(OCCCCCC(F)(F)F)C(=O)c2ccccc21 [compound 12],83,
COc1ccc2c(=O)c3ccc(Cl)cc3[nH]c2c1 [compound 13],>329,
O=c1c2ccc(O)cc2[nH]c2cc(Cl)ccc12 [compound 14],6.4,
O=C1c2ccc(OCCCCCC(F)(F)F)cc2C(=O)c2ccc(O)cc21 [compound 15],>926,
O=c1c2ccc(Cl)cc2[nH]c2cc(OCCCCCCl)ccc12 [compound 16],">2,000",
O=c1c2ccc(Cl)cc2[nH]c2cc(OCCCC(F)(F)F)ccc12 [compound 17],">25,000",
O=c1c2ccc(Cl)cc2[nH]c2cc(OCCCCC(F)(F)F)ccc12 [compound 18],">83,000",
O=c1c2ccc(Cl)cc2oc2cc(OCCCCC(F)(F)F)ccc12 [compound 19],>1.6,
O=c1c2ccccc2[nH]c2cc(OCCCCC(F)(F)F)ccc12 [compound 20],">50,000",
O=c1c2ccc(Cl)cc2[nH]c2cc(OCCCCCC(F)(F)F)ccc12 [compound 21],">416,000",
O=c1c2ccc(Cl)cc2[nH]c2ccc(OCCCCCC(F)(F)F)cc12 [compound 22],">2,500",

Structure (SMILES),IVTI (Table 2),IVTI (Table 3)
O=c1c2ccc(Cl)cc2[nH]c2cc(OCCCCC(F)(F)C(F)(F)F)ccc12 [compound 23],">100,000",
O=c1c2ccc(Cl)cc2[nH]c2cc(OCCCCC(F)(C(F)(F)F)C(F)(F)F)ccc12 [compound 24],">100,000",
O=c1c2ccccc2[nH]c2ccc(OCCCCCC(F)(F)F)cc12 [compound 25],>694,
O=c1c2ccccc2[nH]c2cc(OCCCCCC(F)(F)F)ccc12 [compound 26],">58,000",
O=c1c2ccccc2[nH]c2c(OCCCCCC(F)(F)F)cccc12 [compound 27],>56,
O=c1c2ccc(Cl)cc2[nH]c2cc(OCCCCCCCC(F)(F)F)ccc12 [compound 28],">100,000",
O=c1c2ccc(Cl)cc2[nH]c2cc(OCCCCCCCCO)ccc12 [compound 29],">11,000",
O=c1c2ccc(Cl)cc2[nH]c2cc(OCCCCCCCCCCC(F)(F)F)ccc12 [compound 30],">100,000",
Cn1c2cc(Cl)ccc2c(=O)c2ccc(OCCCCC(F)(F)F)cc21 [compound 31],>6.25,
Nc1c2ccc(Cl)cc2nc2cc(OCCCCCC(F)(F)F)ccc12 [compound 32],86,
O=c1c2ccc(OCCCCCC(F)(F)F)cc2[nH]c2cc([N+](=O)[O-])ccc12 [compound 33],">7,800",
O=C1C=C(OCCCCC(F)(F)F)C(=O)c2ccccc21 [compound 35],437.5,
C=CC1CN2CCC1CC2C(O)c1ccnc2ccc(OC)cc12 (stereo not drawn) [compound 37],"2,091",
CC1CCC2C(C)C(=O)OC3OC4(C)CCC1C32OO4 (stereo not drawn) [compound 39],">38,000",
CCOC(=O)c1c[nH]c2cc(OC)ccc2c1=O [compound 41],,56.8
COc1ccc2c(=O)cc(C)[nH]c2c1 [compound 43],,>3.5
COc1ccc2c(=O)c(CCCCCC(F)(F)F)c(C)[nH]c2c1 [compound 44],,"≈2,000"
COc1ccc2c(=O)c(CCCCCCCCCCC(F)(F)F)c(C)[nH]c2c1 [compound 45],,">100,000"
CCOC(=O)c1c[nH]c2cc(OCCCCCC(F)(F)F)ccc2c1=O [compound 46],,">20,000"
